Measured values from several laboratories, pooled; numbers as filed in NIAID ChemDB.

Common to all: growth or infection tests; agent: HIV-1; endpoint: EC50

Neighbouring rows are from separate reports. ECn is the concentration giving n% inhibition of infection, replication or growth. Blank or dashed fields: not listed here.

{"structure": "CCCCCCCCCCCCCCCCCC(=O)Oc1ccc(OP(=O)(OCc2ccc(OC(=O)CCCC)cc2)OP(=O)(O)OP(=O)(O)OC[C@@H]2C=C[C@H](n3cc(C)c(=O)[nH]c3=O)O2)cc1", "strain": "IIIB", "read by": "syncytia / visual reading", "cell line": "CEM/TK-", "result": "0.54 µM"}
{"structure": "CCc1c(C(=O)c2cc(C)cc(C)c2)n(CC2CC=CC2)c(=O)[nH]c1=O", "strain": "RF", "read by": "cytopathic effect / XTT", "cell line": "CEM + CEM-SS", "result": "0.002 µM"}
{"structure": "CCCCCC1=NN(C(=O)CCOC(=O)CCC(=O)O)OC(CCCCC)C1", "strain": "NL4-3", "read by": "luciferase", "cell line": "MT-2", "result": "0.13 µM"}
{"structure": "CCOCn1c(Cc2ccccc2)c(CO)c(=O)[nH]c1=O", "mutations": "RT-Y181C", "result": ">100 µM"}
{"structure": "Nc1nccc2c1ncn2[C@@H]1C=C(CO)[C@@H](O)[C@H]1O", "strain": "14-6/89 POST-AZT", "read by": "p24", "cell line": "PBMC", "result": "0.00065 µM"}
{"structure": "CCCCCCCCCCCCCCCC(=O)Oc1ccc(OP(=O)(OCc2ccc(OC(=O)CCCC)cc2)OP(=O)(O)OP(=O)(O)OC[C@@H]2C=C[C@H](n3cc(C)c(=O)[nH]c3=O)O2)cc1", "strain": "IIIB", "read by": "syncytia / visual reading", "cell line": "CEM", "result": "0.15 µM"}
{"structure": "CC(C)N(C)Cc1ccc2c(c1)C[C@H](CN=C(N)N)[C@H]2NC(=O)C(=O)Nc1ccc(Cl)c(F)c1", "strain": "JR-FL", "read by": "luminescence", "cell line": "Cf2Th-CD4/CCR5", "result": "12.5 µM"}
{"structure": "Nc1ccn([C@@H]2C=C(CO)[C@@H](O)[C@H]2O)c(=O)n1", "strain": "LAV", "read by": "RT activity", "cell line": "PBMC", "result": "0.6 µM"}
{"structure": "Cc1c(-c2c(C(OC(C)(C)C)C(=O)O)n(C)c(=O)c3[nH]ccc23)ccc2c1CCCO2", "strain": "IIIB", "read by": "MTS", "cell line": "MT-4", "result": "0.07 µM"}
{"structure": "Cc1nc2ccc(C(=O)NC[C@H](O)[C@@]34CC[C@]5(C)[C@H](CC[C@@H]6[C@@]7(C)CC[C@H](OC(=O)[C@H]8C[C@@H](C(=O)O)C8(C)C)C(C)(C)[C@@H]7CC[C@]65C)C3=C(C(C)C)C(=O)C4)cc2[nH]1", "strain": "92HT599", "read by": "p24 / ELISA", "cell line": "MT-2", "result": "<1 µM"}
{"structure": "Cc1cn([C@H]2C=C[C@@H](CO)O2)c(=O)[nH]c1=O", "strain": "IIIB", "cell line": "MT-4", "result": "0.2 µM"}
{"structure": "CCCCCCCCCCCCCCC(=O)Oc1ccc(COP(=O)(Oc2ccc(OC(=O)CCCC(=O)OCCOCCOCCOC)cc2)OP(=O)(O)OP(=O)(O)OC[C@@H]2C=C[C@H](n3cc(C)c(=O)[nH]c3=O)O2)cc1", "strain": "IIIB", "read by": "syncytia / visual reading", "cell line": "CEM/TK-", "result": "2 µM"}
{"structure": "CC(C)C1=C2[C@H]3CC[C@@H]4[C@@]5(C)CC[C@H](OC(=O)[C@H]6C[C@@H](C(=O)O)C6(C)C)C(C)(C)[C@@H]5CC[C@@]4(C)[C@]3(C)CC[C@@]2([C@@H](O)CNC(=O)c2ccc(N3CCS(=O)(=O)CC3)nc2)CC1=O", "strain": "92HT599", "read by": "p24 / ELISA", "cell line": "MT-2", "result": "<1 µM"}
{"structure": "CCCCCCNP(=O)(OC[C@H]1O[C@@H](n2cc(C)c(=O)[nH]c2=O)C[C@@H]1N=[N+]=[N-])Oc1ccccc1", "strain": "IIIB", "cell line": "CEM + CEM/O", "result": ">8 µM"}
{"structure": "CC(C)(C)NC(=O)[C@@H]1CCCN1C(=O)[C@@H](O)[C@H](Cc1ccccc1)NC(=O)[C@H](CC(N)=O)NC(=O)OCc1ccccc1", "strain": "C-3", "read by": "RT activity", "cell line": "MOLT-4", "result": "~1 µM"}
{"structure": "CC(C)C1=C2[C@H]3CC[C@@H]4[C@@]5(C)CC[C@H](OC(=O)[C@H]6C[C@@H](C(=O)O)C6(C)C)C(C)(C)[C@@H]5CC[C@@]4(C)[C@]3(C)CC[C@@]2([C@@H](O)CNCc2csc(N)n2)CC1=O", "strain": "92HT599", "read by": "p24 / ELISA", "cell line": "MT-2", "result": "<1 µM"}
{"structure": "Cc1ccnc2c1NC(=O)c1cccnc1N2C1CC1", "strain": "IIIB", "read by": "p24 / ELISA / antigen", "cell line": "HuT-78", "result": ">7.5 µM"}
{"structure": "Nc1ccn([C@H]2CC[C@@H](CO)O2)c(=O)n1", "cell line": "MT-4", "result": "≥1 µM"}
{"structure": "Cc1ccc(C)c(NS(=O)(=O)c2cc(C(=O)NCc3ccccn3)ccc2Cl)c1", "strain": "NL4-3", "read by": "p24 / antigen", "cell line": "C8166", "result": "0.7 µM"}
{"structure": "CC(C)C1=C2[C@H]3CC[C@@H]4[C@@]5(C)CC[C@H](OC(=O)[C@H]6C[C@@H](C(=O)O)C6(C)C)C(C)(C)[C@@H]5CC[C@@]4(C)[C@]3(C)CC[C@@]2([C@@H](O)CN(CCN(C)C)C(=O)c2ccncn2)CC1=O", "strain": "92HT599", "read by": "p24 / ELISA", "cell line": "MT-2", "result": "<1 µM"}
{"structure": "CN(CC(=O)O)Cc1ccc2c(c1)C[C@H](CN=C(N)N)[C@H]2NC(=O)C(=O)Nc1ccc(Cl)c(F)c1", "strain": "YU2", "read by": "luminescence", "cell line": "Cf2Th-CD4/CCR5", "result": "5.2 µM"}
{"structure": "CC[C@H](C)[C@H]([NH3+])C(=O)NNc1ccn([C@H]2CC[C@@H](CO)O2)c(=O)n1", "cell line": "MT-4", "result": ">100 µM"}
{"structure": "CC(C)C1=C2[C@H]3CC[C@@H]4[C@@]5(C)CC[C@H](OC(=O)[C@H]6C[C@@H](C(=O)O)C6(C)C)C(C)(C)[C@@H]5CC[C@@]4(C)[C@]3(C)CC[C@@]2([C@@H](O)CNCC(C)(C)NC(=O)c2ccc(Cl)cc2OCCN(C)C)CC1=O", "strain": "92HT599", "read by": "p24 / ELISA", "cell line": "MT-2", "result": "<1 µM"}
{"structure": "C=Cc1c(Cc2ccccc2)n(COCC)c(=O)[nH]c1=O", "strain": "IIIB", "cell line": "MT-4", "result": "0.07 µM"}
{"structure": "CC(C)C1=C2[C@H]3CC[C@@H]4[C@@]5(C)CC[C@H](OC(=O)[C@H]6C[C@@H](C(=O)O)C6(C)C)C(C)(C)[C@@H]5CC[C@@]4(C)[C@]3(C)CC[C@@]2(CCNC2(c3ncc(Cl)cn3)CC2)CC1=O", "strain": "92HT599", "read by": "p24 / ELISA", "cell line": "MT-2", "result": "<1 µM"}
{"structure": "Cc1cc(C)cc(C(=O)c2c(C(C)C)c(=O)[nH]c(=O)n2CC2=CCCC2)c1", "strain": "RF", "read by": "cytopathic effect / XTT", "cell line": "CEM + CEM-SS", "result": "0.0001 µM"}
{"structure": "CN(CCc1ccccc1)Cc1ccc2c(c1)C[C@H](CN=C(N)N)[C@H]2NC(=O)C(=O)Nc1ccc(Cl)c(F)c1", "strain": "JR-FL", "read by": "luminescence", "cell line": "Cf2Th-CD4/CCR5", "result": "32.2 µM"}
{"structure": "C=C(C)[C@@H]1CC[C@]2(C(=O)O)CC[C@]3(C)[C@H](CC[C@@H]4[C@@]5(C)CC[C@H](OC(=O)CC(C)(C)C(=O)O)C(C)(C)[C@@H]5CC[C@]43C)[C@@H]12", "strain": "IIIB", "result": "0.0013 µg/mL"}
{"structure": "Nc1nccc2c1ncn2[C@@H]1O[C@H](CO)[C@@H](O)[C@H]1O", "strain": "18453 unpaired", "read by": "p24", "cell line": "PBMC", "result": "0.0217 µM"}

Repeating the final 4 entries:

structure | mutations | strain | read by | cell line | result
Cc1cc(C)cc(C(=O)c2c(C(C)C)c(=O)[nH]c(=O)n2CC2=CCCC2)c1 |  | RF | cytopathic effect / XTT | CEM + CEM-SS | 0.0001 µM
CN(CCc1ccccc1)Cc1ccc2c(c1)C[C@H](CN=C(N)N)[C@H]2NC(=O)C(=O)Nc1ccc(Cl)c(F)c1 |  | JR-FL | luminescence | Cf2Th-CD4/CCR5 | 32.2 µM
C=C(C)[C@@H]1CC[C@]2(C(=O)O)CC[C@]3(C)[C@H](CC[C@@H]4[C@@]5(C)CC[C@H](OC(=O)CC(C)(C)C(=O)O)C(C)(C)[C@@H]5CC[C@]43C)[C@@H]12 |  | IIIB |  |  | 0.0013 µg/mL
Nc1nccc2c1ncn2[C@@H]1O[C@H](CO)[C@@H](O)[C@H]1O |  | 18453 unpaired | p24 | PBMC | 0.0217 µM